From paper PMC10382498, “Host susceptibility and structural and immunological insight of S proteins of two SARS-CoV-2 closely related bat coronaviruses” (2023) come the findings set out here.

Experiment [1] concerns the target BANAL-20-52 S ectodomain trimer (residues 1-1204, K982P and V983P, foldon) (bat coronavirus BANAL-20-52). Put plainly: cryo-EM structure.
Experiment [2] has as its target BANAL-20-236 S ectodomain trimer (residues 1-1200, K978P and V979P, foldon) (bat coronavirus BANAL-20-236). Put plainly: cryo-EM structure.

In experiment [1], “BANAL-20-52 S ectodomain trimer (residues 1-1204, K982P and V983P, foldon) (domain or fragment)” registered a stoichiometry N of 3.

In experiment [2], “BANAL-20-236 S ectodomain trimer (residues 1-1200, K978P and V979P, foldon) (domain or fragment)” came in with a stoichiometry N of 3.
